The record followed here is patent US9328138B2 (priority 2011, dated 2016).

Sequences of proteins named here, by UniProt entry; tags and fusion partners are left off. A change or cut given only in a name is not applied to a line headed by its entry. Residues count along the entry.
UniProt P26663, 1027-1657 R1181K limits assumed: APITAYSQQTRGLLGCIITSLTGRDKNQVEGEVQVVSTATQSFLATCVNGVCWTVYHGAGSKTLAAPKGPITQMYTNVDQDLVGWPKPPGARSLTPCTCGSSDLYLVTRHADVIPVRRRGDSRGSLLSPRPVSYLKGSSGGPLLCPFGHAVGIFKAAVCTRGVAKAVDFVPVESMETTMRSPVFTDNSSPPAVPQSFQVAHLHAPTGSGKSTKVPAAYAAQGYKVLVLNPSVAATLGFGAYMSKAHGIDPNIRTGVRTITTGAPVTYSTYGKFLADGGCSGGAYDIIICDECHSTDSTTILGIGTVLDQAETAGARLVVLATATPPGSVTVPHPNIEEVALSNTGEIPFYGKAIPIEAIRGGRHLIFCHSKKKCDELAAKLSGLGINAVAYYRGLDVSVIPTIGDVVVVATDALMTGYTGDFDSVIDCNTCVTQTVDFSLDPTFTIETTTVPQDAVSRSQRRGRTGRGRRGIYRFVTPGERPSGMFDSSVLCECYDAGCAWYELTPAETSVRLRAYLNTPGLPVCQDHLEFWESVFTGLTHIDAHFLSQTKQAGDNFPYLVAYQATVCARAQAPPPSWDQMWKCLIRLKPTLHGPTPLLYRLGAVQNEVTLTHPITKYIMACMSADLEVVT
UniProt P26663, 1658-1711 partner limits assumed: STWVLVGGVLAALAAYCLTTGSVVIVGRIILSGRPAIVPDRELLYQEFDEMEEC
UniProt Q81258, 1033-1663 limits assumed: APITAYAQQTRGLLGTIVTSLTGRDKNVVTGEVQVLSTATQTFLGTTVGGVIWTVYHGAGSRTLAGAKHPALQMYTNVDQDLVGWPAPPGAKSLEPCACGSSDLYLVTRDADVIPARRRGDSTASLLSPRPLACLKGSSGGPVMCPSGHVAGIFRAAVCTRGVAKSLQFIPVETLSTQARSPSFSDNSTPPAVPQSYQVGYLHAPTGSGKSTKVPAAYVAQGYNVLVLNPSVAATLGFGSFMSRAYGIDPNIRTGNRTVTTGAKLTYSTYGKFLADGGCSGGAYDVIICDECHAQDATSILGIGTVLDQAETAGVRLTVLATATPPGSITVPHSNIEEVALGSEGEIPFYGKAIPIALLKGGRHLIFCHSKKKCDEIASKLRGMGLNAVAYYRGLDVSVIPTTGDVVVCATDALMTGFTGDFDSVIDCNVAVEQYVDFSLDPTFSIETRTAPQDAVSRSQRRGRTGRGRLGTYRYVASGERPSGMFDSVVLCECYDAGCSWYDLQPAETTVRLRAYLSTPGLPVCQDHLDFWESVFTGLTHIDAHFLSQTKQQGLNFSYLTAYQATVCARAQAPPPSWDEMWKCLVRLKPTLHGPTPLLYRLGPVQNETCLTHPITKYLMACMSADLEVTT
UniProt Q81258, 1664-1717 partner limits assumed: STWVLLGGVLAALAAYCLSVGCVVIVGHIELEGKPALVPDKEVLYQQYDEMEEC

Test [1] has as its target HCV genotype 1b (BK) NS3 modified enzyme with a R155K mutation (Hepatitis C virus genotype 1b, UniProt P26663, R1181K). In words: HCV NS3 protease time-resolved fluorescence (TRF) assay, genotype 1b R155K. Type of test: biochemical. The conditions noted are these: read-out: Ki 1b R155K, tested form: K salt. The method, then:
(§1) The HCV NS3 protease inhibitory activity of the present compounds may be tested using assays known in the art. One such assay is HCV NS3 protease time-resolved fluorescence (TRF) assay as described below and in International Patent Application Publication No. WO2006/102087. Other examples of such assays are described in e.g., International Patent Application Publication No. WO2005/046712. The assay is performed in a final volume of 100 μl in assay buffer containing 50 mM HEPES, pH 7.5, 150 mM NaCl, 15% glycerol, 0.15% Triton X-100, 10 mM DTT, and 0.1% PEG 8000. NS3 protease is pre-incubated with various concentrations of inhibitors in DMSO for 30 minutes. […] Product fluorescence is detected using either a VICTOR V2 or FUSION fluorophotometer (Perkin Elmer Life and Analytical Sciences) with excitation at 340 nm and emission at 615 nm with a 400 μs delay. […]
(§2) The HCV NS3 protease inhibitory activity was measured using the protease time-resolved fluorescence (TRF) assay as described below and in International Patent Application Publication No. WO 2006/102087. […]
(§3) The assay was performed in a final volume of 50 μl in assay buffer containing 50 mM HEPES, pH 7.5, 150 mM NaCl, 15% glycerol, 0.15% TRITON X-100, 10 mM DTT, and 0.1% PEG 8000. […] Product fluorescence is detected using an Envision plate reader (Perkin Elmer) with excitation at 340 nm and emission at 615 nm with a 400 μs delay. […]

Test [2] deals with HCV NS3 protease genotype 3a (3A-1) (Hepatitis C virus genotype 3a, UniProt Q81258). The test is described as follows: HCV NS3 protease time-resolved fluorescence (TRF) assay, genotype 3a. Type of test: biochemical. The conditions noted are these: read-out: Ki 3a, tested form: K salt. The method, then:
as §1, §2, §3

Like-named read-outs stand apart in the source and are kept apart here. The structures given here were assigned with low confidence; some may be wrong.

`C=C[C@@H]1C[C@]1(NC(=O)[C@@H]1C[C@@H]2CN1C(=O)[C@H](C1CCCCC1)NC(=O)O[C@@H]1C[C@H]1CCCCCc1c(nc3ccccc3c1O[C@H]1CCN(C)C[C@H]1F)O2)C(=O)NS(=O)(=O)C1(C)CC1`: the results for the Ki in test [1] (first of two values printed in the cell (not explained)), in test [1] (second of two values printed in the cell (not explained)) and in test [2] were 0.015 nM, 0.046 nM and 2.27 nM, respectively.

As usually defined, the Ki is a measure of affinity in units of concentration, obtained from inhibition or displacement.
